# In publication PMC7320009 (Scientific Reports, 2020):
# How the values were obtained:
# [1] = test system: NC(=O)C1=CN([C@@H]2O[C@H](COP(=O)(O)OP(=O)(O)OC[C@H]3O[C@@H](n4cnc5c(N)ncnc54)[C@H](OP(=O)(O)O)[C@@H]3O)[C@@H](O)[C@H]2O)C=CC1; experiment: purified protein; conditions: pH 6.5; 37.0 °C; varied: cofactor
# CC(=O)C(C)=O = experiment: purified protein; conditions: pH 6.5; 37.0 °C
substance,measurement,setting,value
BPSS2242 (Burkholderia pseudomallei K96243),Km,[1],298 ± 31 µM
same,kcat/Km,[1],910 M⁻¹ s⁻¹
same,Km,CC(=O)C(C)=O,53 ± 5 mM
same,kcat/Km,CC(=O)C(C)=O,4.8 M⁻¹ s⁻¹
